# Data from PMC9305947 (Angewandte Chemie (International Ed. in English), 2022).
# Strings that start with PEPTIDE1 are HELM notation: dots part the residues, brackets hold end groups and non-standard residues.
# Test: general procedure: Fmoc solid-phase peptide synthesis; Sieber amide resin; 2-chlorotrityl polystyrene resin; DIC/COMU and OxymaPure
# Details: for final LC-MS purity: HPLC-MS
Substance,final LC-MS purity (whole synthesis) [% purity],"isolated yield (whole synthesis, overall) [% yield]",isolated yield (whole synthesis) [% yield],final LC-MS purity (cyclisation step) [% purity],"cyclisation yield (cyclisation step, from cyclization step)"
PEPTIDE1{P.[Phe(pMP-BODIPY)].K.I.S.I.H.L.[am]}$$$$V2.0,99,26,,,
PEPTIDE1{W.F.K.I.I.K.K.[am]}$$$$V2.0,95,,9,,
PEPTIDE1{P.[Trp(tetramethyl-BODIPY)].K.I.S.I.H.L.[am]}$$$$V2.0,> 99,,27,,
"PEPTIDE1{P.F.K.I.S.I.H.L}$PEPTIDE1,PEPTIDE1,1:R1-8:R2$$$V2.0",,,,> 99,26% yield from cyclization step
PEPTIDE1{F.V.Q.W.F.S.K.F.L.G.K.I.L.[am]}$$$$V2.0,99,,10,,
PEPTIDE1{P.F.K.I.S.I.H.L.[am]}$$$$V2.0,98,,50,,
